Compound potency records, mixed from different reports. Data source: NIAID ChemDB in PubChem.

All rows: tests in culture; agent: Hepatitis B virus; cell line: 2.2.15; measure: EC50

ECn: concentration that inhibits the pathogen or its effect by n%. Neighbouring rows are from separate reports.

SMILES | result
Nc1nc(=O)n([C@@H]2CC[C@H](CO)O2)cc1Cl | 10 µM
Nc1nc(=O)n(C=C=CCO)cc1F | 62 µM
Cc1cn([C@@H]2CC[C@H](CO)O2)c(=O)[nH]c1=O | >10 µM
Nc1nc(=O)n([C@@H]2C[C@@H](F)[C@H](CO)O2)cc1F | 4 µM
O=c1[nH]c(=O)n([C@H]2O[C@@H](CO)C[C@H]2F)cc1F | >50 µM
C#C[C@]1(CO)O[C@@H](n2cnc3c(N)nc(N)nc32)C[C@@H]1O | 0.17 µM
Cc1cn([C@H]2O[C@@H](CO)C[C@H]2F)c(=O)nc1N | >100 µM
Nc1ccn([C@@H]2CC[C@H](CO)S2)c(=O)n1 | >0.5 µM
Nc1ccn([C@H]2O[C@@H](CO)C[C@H]2F)c(=O)n1 | 4 µM
Nc1nc(=O)n([C@@H]2CC[C@H](CO)O2)cc1F | 0.01 µM
Nc1ccn([C@@H]2C[C@@H](F)[C@H](CO)O2)c(=O)n1 | 0.5 µM
Nc1ccn([C@@H]2C=C[C@H](CO)O2)c(=O)n1 | <0.1 µM
O=c1[nH]c(=O)n([C@H]2O[C@@H](CO)C[C@H]2F)cc1Br | >50 µM
Nc1ccn([C@@H]2CS[C@H](CO)O2)c(=O)n1 | 0.05 µM
O=c1ccn([C@@H]2O[C@H](CO)C[C@@H]2F)c(=O)[nH]1 | >10 µM
Nc1nc(=O)n([C@@H]2CS[C@H](CO)O2)cc1F | 0.04 µM
Nc1nc(=O)n([C@H]2CC[C@H](CO)O2)cc1F | 0.5 µM
Cc1cn([C@@H]2C=C[C@H](CO)O2)c(=O)[nH]c1=O | >10 µM
CC(C)(C)C(=O)SCCOP(=O)(OCCSC(=O)C(C)(C)C)OC[C@H]1CC[C@@H](n2cnc3c(N)ncnc32)O1 | 0.08 µM
Nc1ccn([C@@H]2CC[C@H](CO)O2)c(=O)n1 | 0.1 µM
Nc1nc(=O)n([C@H]2O[C@@H](CO)C[C@H]2F)cc1Br | >10 µM
Cc1cn([C@@H]2C[C@@H](F)[C@H](CO)O2)c(=O)[nH]c1=O | >10 µM
Nc1ccn(CC#CCO)c(=O)n1 | >100 µM
Cc1cn([C@@H]2C[C@@H](N)[C@H](CO)O2)c(=O)[nH]c1=O | >10 µM
Cc1cn([C@@H]2C[C@@H](N=[N+]=[N-])[C@H](CO)O2)c(=O)[nH]c1=O | >10 µM